Assay results taken from the supplement of paper PMC9931576.
Human monoclonal antibodies against the spike receptor-binding domain (heavy:light variable regions). IC50 against pseudoviruses bearing the spike of naturally observed variants; lower = stronger; >10 µg/ml means not reached at the top dose. No active / inactive call. The stated detection limit is 0.0005 µg/ml; values near or below 0.001 µg/ml lie at the floor of the assay.

B1: BD55-1214 (protein)
chain 1: QVQLVQSGAEVKKPGASVKVSCKASEYTFSNYYIHWVRQAPGQGLEWLGIINPTGGSTTYAQNFQGRVSMTSDTSTTTVYMELSSLRSEDTAVYYCARGGIIPNTHEAFDMWGQGTMVTVSS
chain 2: EIVMTQSPATLSVSPGERATLSCRASQSVSRNLGWYQQKLGQAPRLLIYGASTRATGIPARFSGSGSGTEFTLTISSLQSEDFAVYYCQQYKSWPYTSGQGTKLEIK
B2: BD55-6305 (protein)
chain 1: VHLVQSGAEVKKPGSSVKVSCKASGGTLSSNAFSWVRQAPGQGLEWMGRIIPMYDKTHTAQKFQGRVTITADKSTSTAYMELSGLRSEDTAVYYCARDLVLAQRGYSGYDLFDVDAFDIWGQGTMVTVSS
chain 2: QIVLTQSPGTLSLSPGERATLSCRASQSVSSNYLAWYQQKPGQAPRLLISGASSRATGIPDRFSGSGSGTDFTLTISRLEPEDFAVYYCQQYGSSPVTFGGGTKVESK
B3: BD55-6307 (protein)
chain 1: QVQLVQSGAEVKKPGASVKVSCKASGYTFTNYGISWVRQAPGQGLECMGWISAHNGNTDYTQKFQSRVTMTTDTSTSTAYMELRSLRSDDTAVYYCVRDRWTYFYESSGQGLFDYWGQGTLVIVSS
chain 2: DVVMTQSPLSLPVTLGQPASISCRSSQSLVYSDGNTYLNWFQQRPGQPPRRLLYMVSNRDSGVPDRFSGSGSGTAFTLKISRVEAEDVGIYYCMQGTNWPRTFGQGTKVEIK
B4: BD55-6319 (protein)
chain 1: EVQLVESGGGLVKPGGSLRLSCAASGFIFRSYSMNWVRQAPGKGLEWVSSISKSGDLKFYVDSVKGRFTISRDNAKNSLFLQMNNLRDDDRAIYYCVRDSPRGSDPVTGYSPDAFDVWGQGTMVTVSS
chain 2: DIQMTQSPSSLSASVGDRVTITCRAAQSISSYLNWYQQKPGKAPKLLIYTASTLESGVPSRFSGTGSGTDFTLTISSLQPEDFATYYCQQTYVTPVYTFGQGTKLEVK
B5: BD55-6338 (protein)
chain 1: EVQLVQSGAEVKKLGESLKISCKGSGYNFSRFWIGWVRQRPGKGLEWMGTIHPGHSETTYSPSVQGQVTISADKSINTAYIQWSSLKASDTAIYFCARRGSLHSSGLTEIYYFDYWGQGSLVSVSS
chain 2: NFMLTQPHSVSGSPGETVTISCTGSGGSIASTYVQWYQQRPGSAPTTVIYEDNQRPSGVPDRFSVSIDSSSNAASLIISGLKTEDEADYYCQSSDSRTSYWVFGGGTKLTVL
B6: BD55-6334 (protein)
chain 1: QVQLVESGGGVVQPGKSLRLSCAASGFSFSDYGFHWVRQAPGKGLEWVAIVWNDGSQKYYADSVKGRFTVSRDNSKNTLYLQMNSLRAEDTAMYYCARDSLCTGGRCFFDYNWFDAWGQGTLVSVSS
chain 2: EIVLTQSPATLSLSPGERATLSCRASQSVSTNLAWYQHKPGQAPRLLIYDASARATGISARFSGSGSGTDFTLTISSLEPEDFAVYYCQQRHTWPPAYTFGQGTKLEL
B7: BD55-6328 (protein)
chain 1: QVQLVESGRGVAQPGRSLRLSCAASGFTFSHYGMHWVRQAPGKGLEWVAVISYDGSDKYYEDSVKGRFTISRDNSKNTLYLQMNSLRAEDTAVYYCAKQMGPYCSGHNCYSGSFDYWGQGILVTVSS
chain 2: DIQMTQSPSSLSASVGDRVTITCQASQDISNYLNWYQQKPGKAPKLLIYGASNLETGVPSRFSGSGSGTDFTFTISSLQPEDIATYYCQRYDNVPLTFGQGTRLEIK
B8: BD55-1225 (protein)
chain 1: QLQLQESGPGLVKPSETLSLTCTVSGASIRGNTYFWGWLRQPPGKGLEWIATMSYTGDSYYTPSLKSRVTISVDTSKNQFSLKLNSVTAADTAVYYCARLTWLRSPFDSWGQGSLVTVSS
chain 2: NFMLTQPHSVSESPGKTVTISCTGSGGFIASNYVQWYQQRPGSAPIVVIYEDSQRPSGVSERFSGSVDSSSNFASLTITGLKTEDEADYYCQSYDVNMHWVFGGGTKLTVL
B9: BD55-6301 (protein)
chain 1: QVQLVESGGGVVQPGRSLRLSCAASGFTFSTYGMHWVRQTPGKGLEWVSIISSDGSGKFYSDSVKGRFTISRDNSKNTLYLQMNSLRAEDTGLYYCAKDAPSSSRDSFPDDWGQGTLVTVSS
chain 2: DIQMTQSPSSLSASVGDRVTITCRASQYITNYLNWYQQKPGKAPKLLIYAASTLRSGVPSRFSGSGSGTDFTLTINSLQPDDFATYYCLQSYTTPLTFGGGTKVEIK
B10: BD55-6351 (protein)
chain 1: EVQLVESGGGLVQPGGSLRLSCSASGFTFNNCAMHWVRQAPGNRLEHVSAVGSDGVVTDYADSVKGRFTISRDNSKNMLFLQMSSLKPEDTAVYYCVKDHDTTYYALFDYWGQGTLVTVSS
chain 2: DIQMTQSPSSLSASVGDRVTITCRASQSISMYLNWYQQKPGKAPKLLIYSTSSLQSGVPSRFSGSGSGTDFTLTINSLQPEDFATYYCQQSYTTPYTFGQGTKLEIK
B11: BD55-1211 (protein)
chain 1: QVTLKESGPVLVKPTETLTLTCTVSGFSLSIPKMGVSWIRQPPGKALEWLADIFSNDEKSYNTSLKSRLTISKDTSKSQVVLVMTNMDPVDTASYYCARTLGDTRWMVTRYFDLWGRGTLVTVSS
chain 2: SYELTQPPSVSVSPGQTARITCSGDTLPNQYTYWYQHKPGQAPVLVIYKDSERPSGIPERFSASTSGTTVTLTVSGVQAEDEADYYCQIADSSGAYFGGGTKLTVL
B12: BD55-6314 (protein)
chain 1: QAQLVQSGAEVKKPGASVRVSCKASGYRFTGYGVSWVRQAPGQGLEWMGWISAYNGDTNYAQNFQGRVTMTTDTSTSTAYMDLRSLRSDDTAVYYCARDEAVTLTYYSGSGHSPYFDYWGQGTLVTVSS
chain 2: QSALTQPASVSGSPGQSITISCTRTSSDVGNYNFVSWYQQHPGKAPKLMIYEGSKRPSGVSNRFSGSKSGNTASLTISGLQAEDEADYFCCSHAGTSTLLFGGGTKLTVL

molecular target: SARS-CoV-2 Omicron BA.1 spike pseudovirus; experiment: pseudovirus neutralization IC50; higher = weaker neutralization
Description: (§1)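 Single-round VSV luciferase pseudovirus mixed with antibody dilutions for 1 h and put on Huh-7 cells for about a day; IC50 from the dose curve.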

| Binder | pseudovirus neutralization IC50 [µg/mL] |
| --- | --- |
| B1 | > 10 |
| B2 | 0.1 |
| B3 | > 10 |
| B4 | > 10 |
| B5 | > 10 |
| B6 | > 10 |
| B7 | > 10 |
| B8 | > 10 |
| B9 | > 10 |
| B10 | > 10 |
| B11 | > 10 |
| B12 | > 10 |

molecular target: SARS-CoV-2 Omicron BA.2 spike pseudovirus; experiment: as above
Description: as §1

| Binder | pseudovirus neutralization IC50 [µg/mL] |
| --- | --- |
| B1 | > 10 |
| B2 | > 10 |
| B3 | > 10 |
| B4 | > 10 |
| B5 | > 10 |
| B6 | > 10 |
| B7 | > 10 |
| B8 | > 10 |
| B9 | > 10 |
| B10 | > 10 |
| B11 | > 10 |
| B12 | > 10 |

molecular target: SARS-CoV-2 Omicron BA.2.75 spike pseudovirus; experiment: as above
Description: as §1

| Binder | pseudovirus neutralization IC50 [µg/mL] |
| --- | --- |
| B1 | > 10 |
| B2 | > 10 |
| B3 | > 10 |
| B4 | > 10 |
| B5 | > 10 |
| B6 | > 10 |
| B7 | > 10 |
| B8 | > 10 |
| B9 | > 10 |
| B10 | > 10 |
| B11 | > 10 |
| B12 | > 10 |

molecular target: SARS-CoV-2 Omicron BA.5 spike pseudovirus; experiment: as above
Description: as §1

| Binder | pseudovirus neutralization IC50 [µg/mL] |
| --- | --- |
| B1 | > 10 |
| B2 | > 10 |
| B3 | > 10 |
| B4 | > 10 |
| B5 | > 10 |
| B6 | > 10 |
| B7 | > 10 |
| B8 | > 10 |
| B9 | > 10 |
| B10 | > 10 |
| B11 | > 10 |
| B12 | > 10 |

molecular target: SARS-CoV-2 Omicron BQ.1.1 spike pseudovirus; experiment: as above
Description: as §1

| Binder | pseudovirus neutralization IC50 [µg/mL] |
| --- | --- |
| B1 | > 10 |
| B2 | > 10 |
| B3 | > 10 |
| B4 | > 10 |
| B5 | > 10 |
| B6 | > 10 |
| B7 | > 10 |
| B8 | > 10 |
| B9 | > 10 |
| B10 | > 10 |
| B11 | > 10 |
| B12 | > 10 |

molecular target: SARS-CoV-2 Omicron XBB spike pseudovirus; experiment: as above
Description: as §1

| Binder | pseudovirus neutralization IC50 [µg/mL] |
| --- | --- |
| B1 | > 10 |
| B2 | > 10 |
| B3 | > 10 |
| B4 | > 10 |
| B5 | > 10 |
| B6 | > 10 |
| B7 | > 10 |
| B8 | > 10 |
| B9 | > 10 |
| B10 | > 10 |
| B11 | > 10 |
| B12 | > 10 |

molecular target: SARS-CoV-2 early D614G spike pseudovirus; experiment: as above
Description: as §1

| Binder | pseudovirus neutralization IC50 [µg/mL] |
| --- | --- |
| B1 | > 10 |
| B2 | 0.0524 |
| B3 | > 10 |
| B4 | > 10 |
| B5 | > 10 |
| B6 | 2.38 |
| B7 | 3.53 |
| B8 | 0.363 |
| B9 | 7.99 |
| B10 | > 10 |
| B11 | > 10 |
| B12 | > 10 |
